Anti-infective test results gathered from many reports (values: NIAID ChemDB through PubChem).

Shared fields: growth or infection tests

Lines come from different laboratories, so protocols vary. Percent inhibition refers to the dose given; in toxicity tests it is the harm to the cells. An empty or dashed field is not shown. A number after MIC or MFC names an inhibition level or a share of isolates. ECn: concentration that inhibits the pathogen or its effect by n%.

compound | organism | strain | changes | cells | method | measure | dose | value
CCOc1cc(Cc2cnc(N)nc2N)cc(OCC)c1-n1cccc1 | Mycobacterium ulcerans | Isolate 5155 |  |  |  | MBC |  | 0.5 µg/mL
CCOC(=O)Nc1cc2c(c(N)n1)N=C(c1cccc(OC)c1)CS2 | Encephalitozoon intestinalis |  |  | RK-13 |  | inhibition | 0.01 µg/mL | 9.1%
Nc1ccn(C[C@@H](CO)OCP(=O)(O)O)c(=O)n1 | Adenovirus | 13306 (TYPE 8) |  |  | virus yield | EC90 |  | 0.2 µg/mL
CCOC(=O)Nc1cc2[nH]c(-c3ccc4c(c3)OCO4)nc2c(NC(c2ccccc2)c2ccccc2)n1 | Encephalitozoon intestinalis |  |  | RK-13 |  | inhibition | 0.01 µg/mL | 26.8%
CC1(C)[C@@H](O[C@H]2O[C@H](C(=O)O)[C@@H](O)[C@H](O)[C@H]2O[C@@H]2O[C@H](C(=O)O)[C@@H](O)[C@H](O)[C@H]2O)CC[C@]2(C)[C@H]3C(=O)C=C4[C@@H]5C[C@@](C)(C(=O)O)CC[C@]5(C)CC[C@@]4(C)[C@]3(C)CC[C@@H]12 | Dengue virus | TYPE 4 (YUNH) |  | VERO | cytopathic effect | EC50 |  | 632.7 µg/mL
CC(C)=CCN1Cc2cc(Cl)cc3[nH]c(=S)n(c23)C[C@@H]1C | HIV-1 |  | RT-K70R | MT-4 |  | EC95 |  | 1.5 µM
CCOC(=O)Nc1cc2c(c(N)n1)N=C1c3ccccc3CCC1O2.Cl.Cl | Encephalitozoon intestinalis |  |  | RK-13 |  | inhibition | 0.001 µg/mL | 12.6%
C#CC[C@@H](C(=O)N[C@H](/C=C/C(=O)OCC)C[C@@H]1CCNC1=O)n1cccc(NC(=O)c2cc(C)on2)c1=O | Rhinovirus | Serotype 36 |  | H1-HELA | cytopathic effect / XTT | inhibition | 0.028 µM | 90%
Nc1ccnc2c1ncn2[C@H]1C=C[C@@H](OCP(=O)(O)O)O1 | Adenovirus | TAK (TYPE 41) |  |  | cytopathic effect | EC50 |  | 6 µg/mL
CCCSc1ccc2nc(NC(=O)OC)[nH]c2c1 | Encephalitozoon intestinalis |  |  | RK-13 |  | inhibition | 0.01 µg/mL | 66%
Nc1ncnc2c1ncn2C[C@@H](CO)OCP(=O)(O)O | Adenovirus | adenoid 75 (TYPE 5) |  |  | cytopathic effect | EC50 |  | 8 µg/mL
CCOC(=O)Nc1cc2c(c(N)n1)N=C(c1cccc(OC)c1)CO2 | Encephalitozoon intestinalis |  |  | RK-13 |  | inhibition | 0.01 µg/mL | 39.5%
Nc1ccc(S(=O)(=O)c2ccc(N)cc2)cc1 | Mycobacterium ulcerans | Isolate 8756 |  |  |  | MIC |  | 1 µg/mL
C[C@H](Cc1ccc(O)c(O)c1)[C@@H](C)Cc1ccc(O)c(O)c1 | Candida glabrata | CCC 115-2000 |  |  | broth dilution | MIC50 |  | 250 µg/mL
CCO/N=C/c1ccc(OCCC2CCN(c3ccc(C)nn3)CC2)cc1 | Rhinovirus | JM1 (ICAM-1 receptor group 91) |  | KB | neutral red | EC50 |  | 0.06 µM